In this experiment the target is dimeric human ACE2 fused to the Fc domain of human immunoglobulin (Ig)G (human) (UniProt Q9BYF1). As to the kind of experiment: SPR.

As usually defined, the Kd is the concentration at which binding is half-saturated. “ADDomer decorated with SARS-CoV-2 RBD (from UniProt P0DTC2 320-554) (complex)” showed a Kd of 309 pM. In other words, the sub-nanomolar range.
